A mixed list of measured activities; the numbers were collected in NIAID ChemDB.

Common to all: whole-cell or culture tests; agent: Herpes simplex virus 1; cell line: E6SM; read-out: EC50

ECn is the concentration giving n% inhibition of infection, replication or growth. Rows are shuffled and stem from different studies.

{"SMILES": "Cc1ccn2c(C3OCCO3)cnc2c1", "strain": "KOS", "result": ">1000 µM"}
{"SMILES": "CNc1ncnc2c1cnn2Cc1cn(CCCCO)nn1", "strain": "KOS", "result": ">400 µg/mL"}
{"SMILES": "CC(=O)OCCOCN1C=CC(=O)N(COCCOC(C)=O)S1(=O)=O", "strain": "KOS", "result": ">400 µg/mL"}
{"SMILES": "CC1(C)[C@@H](CCO)C[C@H]1n1nnc2c(N)nc(N)nc21", "strain": "TK-/VMW 1837", "method": "cytopathic effect", "result": "100 µg/mL"}
{"SMILES": "CC(C)CS[C@H]1C[C@@H](n2cnc3c(N)ncnc32)[C@H](O)[C@@H]1O", "strain": "KOS", "method": "cytopathic effect", "result": "400 µg/mL"}
{"SMILES": "CC1(CO)CCC(Cn2cnc3c(=O)[nH]cnc32)C1(C)C", "strain": "TK-/TK+ (VMW 1837)", "method": "cytopathic effect", "result": ">200 µg/mL"}
{"SMILES": "Nc1nc(N)c(Br)c(OCCOCP(=O)(O)O)n1", "strain": "KOS", "method": "cytopathic effect", "result": "700 µM"}
{"SMILES": "O=c1[nH]c(=O)n([C@H]2C[C@H](O)[C@@H](CO)O2)cc1I", "strain": "B2006 (TK-)", "method": "cytopathic effect", "result": "10 µg/mL"}
{"SMILES": "CC(=O)OCCOCN1C(=O)C=CN(COCCO)S1(=O)=O", "strain": "McIntyre", "result": ">400 µg/mL"}
{"SMILES": "O=c1[nH]c(=O)n([C@H]2C[C@H](O)[C@@H](COP(=O)(O)O)O2)cc1I", "strain": "B2006 (TK-)", "method": "cytopathic effect", "result": "40 µg/mL"}
{"SMILES": "CO[C@H](CO)[C@@H](O)CCn1cnc2c(=O)[nH]c(N)nc21", "strain": "VMW1837 (TK-)", "method": "cytopathic effect", "result": ">400 µg/mL"}
{"SMILES": "CCOC(=O)C1=CN(COCCOC(C)=O)S(=O)(=O)N=C1N", "strain": "VMW1837 (TK-)", "result": ">400 µg/mL"}
{"SMILES": "OC[C@H]1O[C@@H](c2cc(Br)c(F)cc2F)C[C@@H]1O", "strain": "KOS", "method": "cytopathic effect", "result": ">400 µg/mL"}
{"SMILES": "Nc1ncnc2c1ncn2[C@@H]1O[C@H](CO)[C@](O)(C(F)(F)F)[C@H]1O", "strain": "KOS", "method": "cytopathic effect", "result": "20 µg/mL"}
{"SMILES": "Cc1cc([C@@H]2C[C@H](O)[C@@H](CO)O2)c(F)cc1Cl", "strain": "KOS/ACV-R", "method": "cytopathic effect", "result": ">400 µg/mL"}
{"SMILES": "Nc1ncnc2c1ncn2CC[C@H](O)CCO", "strain": "McIntyre", "method": "cytopathic effect", "result": ">400 µg/mL"}
{"SMILES": "CC1(C)[C@@H](CCO)C[C@H]1n1nnc2c(=O)[nH]cnc21", "strain": "TK-/B2006", "method": "cytopathic effect", "result": "40 µg/mL"}
{"SMILES": "OC[C@H]1O[C@@H](c2cncc(Br)c2)[C@@H](O)[C@H]1O", "strain": "KOS", "method": "cytopathic effect", "result": "≥100 µg/mL"}
{"SMILES": "Cc1cn(CC[C@H](O)CCO)c(=O)[nH]c1=O", "strain": "B2006 (TK-)", "method": "cytopathic effect", "result": ">400 µg/mL"}
{"SMILES": "Nc1cc(OCCOCP(=O)(O)O)nc(N)n1", "strain": "KOS", "method": "cytopathic effect", "result": "25 µM"}
{"SMILES": "OCCCCn1cc(Cn2ncc3c(SCc4ccccc4)ncnc32)nn1", "strain": "B2006 (TK-)", "result": ">400 µg/mL"}
{"SMILES": "N#Cc1cc([C@H]2C[C@H](O)[C@@H](CO)O2)c(F)cc1F", "strain": "KOS", "method": "cytopathic effect", "result": ">400 µg/mL"}
{"SMILES": "C/C(O)=C1\\C(=N)N(COCCO)S(=O)(=O)N=C1N", "strain": "B206 (TK-)", "result": ">400 µg/mL"}
{"SMILES": "CO[C@H](CO)[C@@H](O)CCn1ccc(N)nc1=O", "strain": "B2006 (TK-)", "method": "cytopathic effect", "result": ">400 µg/mL"}
{"SMILES": "OC[C@H]1O[C@@H](c2cncc(Br)c2)[C@@H](O)[C@@H]1O", "strain": "KOS", "method": "cytopathic effect", "result": "≥100 µg/mL"}
{"SMILES": "CC(=O)OCCOCN1C=CC(=O)N(COCCO)S1(=O)=O", "strain": "McIntyre", "result": ">400 µg/mL"}
{"SMILES": "Cc1cccn2c(C3OCCS3)cnc12", "strain": "KOS", "result": ">1000 µM"}
{"SMILES": "OC[C@H]1O[C@@H](c2cc(F)c(F)cc2F)C[C@@H]1O", "strain": "F", "method": "cytopathic effect", "result": ">400 µg/mL"}
{"SMILES": "CC(=O)OCCOCN1C=C(C#N)C(N)=NS1(=O)=O", "strain": "KOS", "result": ">400 µg/mL"}
{"SMILES": "CC1(C)[C@@H](CCO)C[C@H]1n1cnc2c(N)nc(N)nc21", "strain": "KOS", "method": "cytopathic effect", "result": ">400 µg/mL"}
{"SMILES": "COc1ncnc2c1cnn2Cc1cn(CCCCO)nn1", "strain": "KOS", "result": ">400 µg/mL"}
{"SMILES": "Cc1cn([C@@H]2O[C@H](CO)[C@](O)(C(F)(F)F)[C@H]2O)c(=O)[nH]c1=O", "strain": "KOS", "method": "cytopathic effect", "result": "300 µg/mL"}
{"SMILES": "CC1(CO)CCC(Cn2ccc(=O)[nH]c2=O)C1(C)C", "strain": "TK-/TK+ (VMW 1837)", "method": "cytopathic effect", "result": "300 µg/mL"}
{"SMILES": "Nc1ncnc2c1ncn2[C@@H]1O[C@H](COP(=O)(O)O)[C@@H](O)[C@H]1O", "method": "cytopathic effect", "result": ">400 µg/mL"}
{"SMILES": "Cc1cc([C@H]2C[C@H](O)[C@@H](CO)O2)c(F)cc1F", "strain": "F", "method": "cytopathic effect", "result": ">400 µg/mL"}
{"SMILES": "Cc1ccn2c(C3SCCS3)cnc2c1", "strain": "VMW 1837 (TK+/TK-)", "result": ">1000 µM"}
{"SMILES": "Cc1cc([C@@H]2C[C@H](O)[C@@H](CO)O2)c(Cl)cc1F", "strain": "VMW 1837", "method": "cytopathic effect", "result": ">400 µg/mL"}
{"SMILES": "COc1cc2c(cc1OC)[C@@H]1C(N)CSCON1CC2", "strain": "B2006 (TK-)", "method": "cytopathic effect", "result": "0.07 µg/mL"}
{"SMILES": "NC(=S)c1cncc([C@@H]2O[C@H](CO)[C@@H](O)[C@@H]2O)c1", "strain": "KOS", "method": "cytopathic effect", "result": "≥100 µg/mL"}
{"SMILES": "NC1CSCCN2CCc3c([nH]c4ccccc34)[C@H]12", "strain": "VMW1837 (TK-/TK+)", "method": "cytopathic effect", "result": "1 µg/mL"}
{"SMILES": "OC[C@H]1O[C@H](c2cc(Br)c(F)cc2F)C[C@@H]1O", "strain": "KOS/ACV-R", "method": "cytopathic effect", "result": ">400 µg/mL"}
{"SMILES": "CC1(C)[C@@H](CCO)C[C@H]1n1cnc2c(=O)[nH]c(N)nc21", "strain": "KOS", "method": "cytopathic effect", "result": "300 µg/mL"}

The last 6 rows once more:

SMILES | strain | method | result
Cc1cc([C@@H]2C[C@H](O)[C@@H](CO)O2)c(Cl)cc1F | VMW 1837 | cytopathic effect | >400 µg/mL
COc1cc2c(cc1OC)[C@@H]1C(N)CSCON1CC2 | B2006 (TK-) | cytopathic effect | 0.07 µg/mL
NC(=S)c1cncc([C@@H]2O[C@H](CO)[C@@H](O)[C@@H]2O)c1 | KOS | cytopathic effect | ≥100 µg/mL
NC1CSCCN2CCc3c([nH]c4ccccc34)[C@H]12 | VMW1837 (TK-/TK+) | cytopathic effect | 1 µg/mL
OC[C@H]1O[C@H](c2cc(Br)c(F)cc2F)C[C@@H]1O | KOS/ACV-R | cytopathic effect | >400 µg/mL
CC1(C)[C@@H](CCO)C[C@H]1n1cnc2c(=O)[nH]c(N)nc21 | KOS | cytopathic effect | 300 µg/mL